Which two values form the index is not stated here.
Columns and labels:
[1] = tested on: ZIKV (MR766, Uganda); type: cell-based, Zika virus; conditions: selectivity index; Vero E6
[2] = tested on: CHIKV (Guatemala); assay: CPE inhibition assay, CHIKV on Vero E6; type: cell-based, chikungunya virus; conditions: selectivity index

Row | SMILES | ZIKV SI [1] | CHIKV SI [2]
1 | CC(=O)N[C@H]1[C@H](O[C@@H]2c3ccc(c(Cl)c3)Oc3cc4cc(c3O)Oc3ccc(cc3Cl)C[C@H]3NC(=O)[C@H](n5cc(COCCOCCCC(F)(F)C(F)(F)C(F)(F)C(F)(F)C(F)(F)C(F)(F)C(F)(F)C(F)(F)F)nn5)c5ccc(O)c(c5)Oc5cc(O)cc(c5)[C@H](NC3=O)C(=O)N[C@H]4C(=O)N[C@H]3C(=O)N[C@@H]2C(=O)N[C@H](C(=O)O)c2cc(O)cc(O)c2-c2cc3ccc2O)O[C@H](CO)[C@@H](O)[C@@H]1O [Compound 1] | 6.13 | 
2 | CC(=O)N[C@H]1[C@H](O[C@@H]2c3ccc(c(Cl)c3)Oc3cc4cc(c3O)Oc3ccc(cc3Cl)C[C@H]3NC(=O)[C@H](n5cc(COCCOCCCC(F)(F)C(F)(F)C(F)(F)C(F)(F)C(F)(F)C(F)(F)F)nn5)c5ccc(O)c(c5)Oc5cc(O)cc(c5)[C@H](NC3=O)C(=O)N[C@H]4C(=O)N[C@H]3C(=O)N[C@@H]2C(=O)N[C@H](C(=O)O)c2cc(O)cc(O)c2-c2cc3ccc2O)O[C@H](CO)[C@@H](O)[C@@H]1O [Compound 2] | 16.59 | 
3 | CC(=O)N[C@H]1[C@H](O[C@@H]2c3ccc(c(Cl)c3)Oc3cc4cc(c3O)Oc3ccc(cc3Cl)C[C@H]3NC(=O)[C@H](n5cc(COCCOCCCC(F)(F)C(F)(F)C(F)(F)C(F)(F)F)nn5)c5ccc(O)c(c5)Oc5cc(O)cc(c5)[C@H](NC3=O)C(=O)N[C@H]4C(=O)N[C@H]3C(=O)N[C@@H]2C(=O)N[C@H](C(=O)O)c2cc(O)cc(O)c2-c2cc3ccc2O)O[C@H](CO)[C@@H](O)[C@@H]1O [Compound 3] |  | 5.52
4 | CC(=O)N[C@H]1[C@H](O[C@@H]2c3ccc(c(Cl)c3)Oc3cc4cc(c3O)Oc3ccc(cc3Cl)C[C@H]3NC(=O)[C@H](NC(=O)CCC(F)(F)C(F)(F)C(F)(F)C(F)(F)C(F)(F)C(F)(F)C(F)(F)C(F)(F)F)c5ccc(O)c(c5)Oc5cc(O)cc(c5)[C@H](NC3=O)C(=O)N[C@H]4C(=O)N[C@H]3C(=O)N[C@@H]2C(=O)N[C@H](C(=O)O)c2cc(O)cc(O)c2-c2cc3ccc2O)O[C@H](CO)[C@@H](O)[C@@H]1O [Compound 6] | 28.44 | 2.86
5 | COC(=O)C1NC(=O)C2NC(=O)C(NC(=O)C3NC(=O)C4NC(=O)C(NC(=O)C(NC(=O)CCC(F)(F)C(F)(F)C(F)(F)C(F)(F)C(F)(F)C(F)(F)C(F)(F)C(F)(F)F)c5ccc(O)c(c5)Oc5cc4cc(O)c5C)C(O)c4ccc(cc4)Oc4cc3cc(c4O)Oc3ccc(cc3)C2O)c2ccc(O)c(c2)-c2c(O)cc(O)cc21 (stereo not shown) [Compound 8] | 1.48 | 4.46
